Each molecule was assayed on FRET signal of digested Oligo D (assay: FRET fluorescence quenching following reaction completion). Settings: not given.

Row | SMILES | quenching of FRET signal after reaction completion
1 | CC(C)=CCOc1ccc(/C=C/C(=O)c2ccc(OCC=C(C)C)cc2OCC(=O)O)cc1 [Compound 68, Sofalcone, reference compound] | not quenched
2 | CC(C)=CCc1c2c(c3occ(-c4ccc(O)c(O)c4)c(=O)c3c1O)C=CC(C)(C)O2 [Compound 69, Pomiferin] | not quenched
3 | CC(C)=CCc1c(O)ccc(C(=O)/C=C/c2ccc(O)cc2)c1O [Compound 77, Isobavachalcone] | not quenched
4 | O=C(NCc1ccc(F)cc1)C1C(=O)N(O)C(=O)c2cc(C(F)(F)F)ccc21 (stereo not drawn) [Compound 112, 7-trifluoromethyl-N-(4-fluorobenzyl)-2-hydroxy-1,3-dioxo-4H-isoquinoline-4-carboxamide] | not quenched

Same assay, conditions: 500 μM added after digestion of Oligo D by RNase A or NSP14/10

Row | SMILES | quenching of FRET signal after reaction completion
5 | O=C1Cc2ccccc2C(=O)N1O [Compound 13, 2-Hydroxyisoquinoline-1,3(2H,4H)-dione] | not quenched

Same assay, conditions: 250 M (so in the source) added after digestion of Oligo D by RNase A

Row | SMILES | quenching of FRET signal after reaction completion
6 | Oc1ccc(CC2NCCc3cc(O)c(O)cc32)cc1O (stereo not drawn) [Compound 54, Tetrahydropapaveroline] | not quenched
7 | Cc1c(S(=O)(=O)[O-])oc2c1C(=O)C(=O)c1c-2ccc2c1CCCC2(C)C.[Na+] [Compound 60, Tanshinone IIA sulfonate] | not quenched
8 | Cc1ccc2ccc(C(=O)O)c(O)c2n1 [Compound 78, 2-methyl-8-hydroxyquinoline-7-carboxylic acid] | not quenched
9 | O=C(c1ccccc1)c1ccc2ccc(/C=C/c3ccc(O)c(O)c3)nc2c1O [Compound 96, 7-benzoyl-2-(3,4-dihydroxyvinyl)-8-hydroxyquinoline] | not quenched

Reference: patent publication US20250213569A1, “METHODS AND COMPOSITIONS FOR MEASURING AND INHIBITING EXONUCLEASE ACTIVITY” (priority 2020, published 2025)
